A mixed list of measured activities; the numbers were collected in NIAID ChemDB.

Shared fields: growth or infection tests; organism: HIV-2; measure: EC50

ECn: concentration that inhibits the pathogen or its effect by n%. Blank or dashed fields: not listed here. Lines come from different laboratories, so protocols vary.

smiles | read by | conditions | strain | cell line | value
CC(c1cc(=O)[nH]c(SCC(=O)c2ccc(F)cc2)n1)C1CCCCC1 | MTT | - | ROD | MT-4 | 165 µM
CCOP(=O)(/C=C/n1ccc(=O)[nH]c1=O)OCC | - | - | ROD | CEM + CEM-SS | >200 µM
C1CNCCNCCCN[C@H]([C@@H]2CNCCCNCCNCCCN2)CNC1 | cytopathic effect / MTT | - | ROD | MT-4 | 0.29 µM
CC(=O)Nc1cnc(Oc2c(Cl)cc(Cl)cc2Cl)nc1Nc1ccc(C#N)cc1 | MTT | - | ROD | MT-4 | >33.16 µM
CCc1c(C(C)CC2CCCCC2)nc(SCC(=O)c2ccccc2)[nH]c1=O | MTT | - | ROD | MT-4 | 32 µM
Nc1nc(N)c(Cl)c(OCCOCP(=O)(O)O)n1 | syncytia | - | ROD | CEM | 1.3 µg/mL
CC(c1cc(=O)[nH]c(SCC(=O)c2ccccc2)n1)C1CCCCC1 | MTT | - | ROD | MT-4 | 266 µM
C#Cc1ccc(Nc2nccc(Oc3c(C)cc(-c4cn(CC(=O)Nc5ccc(S(C)(=O)=O)cc5)nn4)cc3C)n2)cc1 | MTT | - | ROD | MT-4 | >6.36 µM
CCCCCCCCCCCCOCCOP(=O)(O)OC[C@H]1O[C@@H](n2cc(C)c(=O)[nH]c2=O)C[C@@H]1N=[N+]=[N-] | syncytia | - | ROD | CEM + CEM/O | 0.133 µM
Cc1cn([C@H]2C[C@H](N=[N+]=[N-])[C@@H](CO)O2)c(=O)[nH]c1=O | cytopathic effect / MTT | - | ROD | MT-4 | 0.0037 µM
Cc1cn([C@H]2C[C@H](N=[N+]=[N-])[C@@H](CO)O2)c(=O)[nH]c1=O | cytopathic effect / MTT | - | ROD | MT-4 | 0.0008 µM
O=C(O)c1c[nH]c2ccc(Cc3ccccc3)cc2c1=O | MTT | - | ROD | MT-4 | >19 µM
Nc1ccn([C@H]2CC[C@@H](CO)O2)c(=O)n1 | cytopathic effect / MTT | - | EHO | MT-4 | 0.1 µM
CC(=O)Nc1nc2c(ncn2/C=C\P(=O)(O)O)c(=O)[nH]1 | - | - | ROD | CEM + CEM-SS | >200 µM
COc1ccc(C(=O)CSc2nc(CCC3CCCCC3)cc(=O)[nH]2)cc1 | MTT | - | ROD | MT-4 | 156 µM
Cc1cc(C)c(Oc2ncc(NC(=O)C(F)(F)F)c(Nc3ccc(C#N)cc3)n2)c(C)c1 | MTT | - | ROD | MT-4 | >243 µM
CCCCCCCCCCCCCCOP(=O)(O)OC[C@H]1O[C@@H](n2cc(C)c(=O)[nH]c2=O)C[C@@H]1N=[N+]=[N-] | syncytia | - | ROD | CEM + CEM TK- | >40 µM
C#Cc1ccc(Nc2nccc(Oc3c(C)cc(-c4cn(CC(=O)Nc5ccc(F)cc5)nn4)cc3C)n2)cc1 | MTT | - | ROD | MT-4 | >1.41 µM
CC(C)c1nc(C(=O)NCc2ccc(F)cc2)c([O-])c(=O)n1C.CC(C)c1nc(C(=O)NCc2ccc(F)cc2)c([O-])c(=O)n1C.[Mg+2] | MTT | - | ROD | MT-4 | 0.026 µM
CCc1c(C(C)C2CCCCC2)nc(SCC(=O)c2ccccc2)[nH]c1=O | MTT | - | ROD | MT-4 | 194 µM
CSc1nc2c(c(=O)[nH]1)C(c1ccc([N+](=O)[O-])cc1)c1c(nc(SC)[nH]c1=O)O2 | cytopathic effect | - | ROD | MT-4 | >188.9 µM
O=C(O)c1cn(CCO)c2ccc(Cc3ccccc3)cc2c1=O | MTT | - | ROD | MT-4 | 4 µM
CC(CC1CCCCC1)c1cc(=O)[nH]c(SCC(=O)c2ccc(F)cc2)n1 | MTT | - | ROD | MT-4 | 108 µM
Nc1ncnc2c1ncn2C1CCC1 | cytopathic effect / MTT | - | ROD | MT-4 | >100 µM
C#Cc1ccc(Nc2nccc(Oc3c(C)cc(-c4cn(CCCC(=O)OC)nn4)cc3C)n2)cc1 | MTT | - | ROD | MT-4 | >20.15 µM
Cc1cn(/C=C/P(=O)(O)O)c(=O)[nH]c1=O | - | - | ROD | CEM + CEM-SS | >200 µM
Nc1nc(N)c(Br)c(OCCOCP(=O)(O)O)n1 | syncytia | - | ROD | CEM | 3.3 µg/mL
O=c1[nH]c(=O)n(/C=C\P(=O)(O)O)cc1I | - | - | ROD | CEM + CEM-SS | >200 µM
C1CNCCNCCCN(CCCN2CCCNCCNCCCNCC2)CCNC1 | cytopathic effect / MTT | - | EHO | MT-4 | 1.37 µM
COc1nc(=O)[nH]c2c1C(c1ccc([N+](=O)[O-])cc1)c1c(OC)nc(=O)[nH]c1O2 | cytopathic effect | - | EHO | MT-4 | >313 µM
Nc1ncnc2c1ncn2C1CC(CO)(CO)C1 | cytopathic effect / MTT | - | ROD | MT-4 | >500 µM
COC(=O)CCNP(=O)(OC[C@@H]1C=C[C@H](n2cc(C)c(=O)[nH]c2=O)O1)Oc1ccccc1 | syncytia | - | ROD | CEM + CEM TK- | 7 µM
CCOP(=O)(/C=C\n1cnc2c(N)ncnc21)OCC | - | - | ROD | CEM + CEM-SS | >200 µM
N#Cc1ccc(Nc2nc(Oc3c(Br)cc(Br)cc3Br)ncc2NC(=O)C(F)(F)F)cc1 | MTT | - | ROD | MT-4 | >7.01 µM
CCCCCCCSc1nsc(NC(=O)Nc2ccccc2)n1 | cytopathic effect | - | ROD | MT-4 | 29.8 µM
CCc1c(C(=O)c2cc(C)cc(C)c2)n(CC2CC=CC2)c(=O)[nH]c1=O | cytopathic effect / XTT | clinical isolate | CBL-20 | PBMC | 0.48 µM
O=c1[nH]cnc2c1ncn2[C@H]1CC[C@@H](CO)O1 | MTT | - | ROD | MT-4 | 19 µM
O=c1[nH]c(=S)[nH]c2c1C(c1ccc(Cl)cc1)c1c([nH]c(=S)[nH]c1=O)O2 | cytopathic effect | - | EHO | MT-4 | >137 µM
Nc1ncnc2c1ncn2CCOCP(=O)(O)O | cytopathic effect / MTT | - | - | CEM | 6 µM
CCC(C)C(NP(=O)(OC[C@@H]1C=C[C@H](n2cc(C)c(=O)[nH]c2=O)O1)Oc1ccccc1)C(=O)OC | syncytia | - | ROD | CEM + CEM TK- | 2.5 µM
Cc1ccnc2c1NC(=O)c1cccnc1N2C1CC1 | MTT | - | EHO | MT-4 | >290 µM
c1ccc(C2OCc3nc4ccccc4n32)cc1 | cytopathic effect | - | ROD | MT-4 | >17 µM
Cc1cc(C#N)cc(C)c1Oc1ncc(NC(=O)C(F)(F)F)c(Nc2ccc(C#N)cc2)n1 | MTT | - | ROD | MT-4 | >276 µM
Cc1cn([C@H]2C[C@H](N=[N+]=[N-])[C@@H](CO)O2)c(=O)[nH]c1=O | cytopathic effect / MTS | - | EHO | MT-4 | 0.0004 µM
CCc1c(C(C)CC2CCCCC2)nc(SCC(=O)c2ccc(OC)cc2)[nH]c1=O | MTT | - | ROD | MT-4 | 31 µM
CCCCCCCCCCCCCCCCOCCOP(=O)(O)OC[C@H]1O[C@@H](n2cc(C)c(=O)[nH]c2=O)C[C@@H]1N=[N+]=[N-] | syncytia | - | ROD | CEM + CEM TK- | >7 µM
C#Cc1ccc(Nc2nccc(Oc3c(C)cc(-c4cn(Cc5ccccc5[N+](=O)[O-])nn4)cc3C)n2)cc1 | MTT | - | ROD | MT-4 | >7.22 µM
CC(=O)Nc1cnc(Oc2c(C)cc(Br)cc2C)nc1Nc1ccc(C#N)cc1 | MTT | - | ROD | MT-4 | >147.6 µM
C1CNCCNCCCN(CCCN2CCCNCCNCCCNCC2)CCNC1 | cytopathic effect / MTS | - | EHO | MT-4 | 1.74 µM
CC(=O)Nc1cnc(Oc2c(Cl)cccc2Cl)nc1Nc1ccc(C#N)cc1 | MTT | - | ROD | MT-4 | >193.7 µM
O=c1ccn(/C=C\P(=O)(O)O)c(=O)[nH]1 | - | - | ROD | CEM + CEM-SS | >200 µM
C#Cc1ccc(Nc2nccc(Oc3c(C)cc(-c4cn(-c5ccc(C(=O)O)cc5)nn4)cc3C)n2)cc1 | MTT | - | ROD | MT-4 | >33.17 µM
O=C([O-])c1c[nH]c2ccc(Cc3ccccc3)cc2c1=O.O=C([O-])c1c[nH]c2ccc(Cc3ccccc3)cc2c1=O.[Mg+2] | MTT | - | ROD | MT-4 | >17 µM
Nc1cc(OCCOCP(=O)(O)O)nc(N)n1 | syncytia | - | ROD | CEM | 0.57 µg/mL
CCc1c(CCC2CCCCC2)nc(SCC(=O)c2ccc(O)cc2)[nH]c1=O | MTT | - | ROD | MT-4 | 132 µM
C#Cc1ccc(Nc2nccc(Oc3c(C)cc(-c4cn(Cc5ccc(S(N)(=O)=O)cc5)nn4)cc3C)n2)cc1 | MTT | - | ROD | MT-4 | >81.64 µM
C1CNCCNCCCN(CCN2CCCNCCNCCCNCC2)CCNC1 | cytopathic effect / MTT | - | ROD | MT-4 | 124.6 µM
CC(=O)Nc1cnc(Oc2c(C)cc(C=O)cc2C)nc1Nc1ccc(C#N)cc1 | MTT | - | ROD | MT-4 | >237 µM
Nc1ccn(/C=C/P(=O)(O)O)c(=O)n1 | - | - | ROD | CEM + CEM-SS | >200 µM
C#Cc1ccc(Nc2nccc(Oc3c(C)cc(-c4cn(Cc5cccc(C(=O)OC)c5)nn4)cc3C)n2)cc1 | MTT | - | ROD | MT-4 | >4.78 µM
Cc1cn([C@H]2C[C@H](N=[N+]=[N-])[C@@H](CO)O2)c(=O)[nH]c1=O | cytopathic effect / MTT | - | ROD | MT-4 | 0.002 µM
Fc1ccc(F)c(C2OCc3nc4ccccc4n32)c1 | cytopathic effect | - | ROD | MT-4 | >71 µM
Cc1c(C(C)C2CCCCC2)nc(SCC(=O)c2ccc(O)cc2)[nH]c1=O | MTT | - | ROD | MT-4 | 13 µM